Pooled drug test results. Numbers come from NIAID ChemDB, via PubChem.

All rows: tests in culture; organism: Herpes simplex virus 2

a–b is a range or a potency band. ECn is the concentration giving n% inhibition of infection, replication or growth. An empty or dashed field is not shown. Lines come from different laboratories, so protocols vary.

structure	endpoint	read by	cell line	strain or isolate	result
CCCCC(C)(C)[C@H](O)/C=C/[C@H]1C=CC(=O)[C@@H]1CCCCCCC(=O)O	EC50	hybridisation	VERO	G	3.8 µg/mL
Nc1ncnc2c1ccn2[C@@H]1C[C@H](O)[C@@H](O)[C@H]1O	EC50	-	E6SM	TYPE G	>400 µg/mL
O=c1[nH]c(=O)n([C@H]2C[C@H](O)[C@@H](COP3(=O)OCc4cccc(-c5ccccc5)c4O3)O2)cc1/C=C/Br	EC50	plaque count	VERO	G (TK+)	>128 µg/mL
O=c1[nH]c(=O)n(C2CC(O[N+](=O)[O-])C(CO)O2)cc1F	EC50	cytopathic effect	E6SM	G	>400 µg/mL
CCc1cn([C@H]2C[C@H](O)[C@@H](CO)O2)c(=O)[nH]c1=O	EC50	cytopathic effect	BHK-21	Clinical isolates	0.08–0.7 µg/mL
NC1CSCCN2CCc3c([nH]c4ccccc34)[C@H]12	EC50	cytopathic effect	E6SM	G	2 µg/mL
[N-]=[N+]=N[C@H]1[C@@H](F)[C@H](N2C=CC(N)NC2=O)O[C@@H]1CO	EC50	cytopathic effect	PRK	G	>400 µg/mL
CCn1cc(C(N)=O)c(=O)c2cc(F)c(-c3ccncc3)cc21	EC50	plaque count	VERO	Curtis	>100 µg/mL
Cc1cn(C[C@H]2C[C@H]2CO)c(=O)[nH]c1=O	EC50	cytopathic effect	-	-	>100 µg/mL
Cc1cn([C@@H]2O[C@H](CO[Si](C)(C)C(C)(C)C)C3(O[C@H]3C(=O)NO)[C@H]2O[Si](C)(C)C(C)(C)C)c(=O)[nH]c1=O	EC50	plaque count	VERO	-	>3 µM
CC(C)NS(=O)(=O)c1ccccc1C(=O)N/N=C/c1ccc(F)cc1	EC50	cytopathic effect	HEL	G	>100 µM
CON1CCc2c([nH]c3ccccc23)[C@@H]1[C@@H](N)CSC	EC50	cytopathic effect	PRK	G	70 µg/mL
COC(=O)/C=C1/[C@@H](O[Si](C)(C)C(C)(C)C)[C@H](n2ccc(=O)[nH]c2=O)O[C@@H]1CO[Si](C)(C)C(C)(C)C	EC50	plaque count	VERO	-	>38 µM
O=C(NCc1ccc(Cl)cc1)c1c[nH]c2c(F)cccc2c1=O	EC50	plaque count	-	3 isolates	23 µM
C=CCc1cn([C@H]2C[C@H](O)[C@@H](CO)O2)c(=O)[nH]c1=O	EC50	cytopathic effect	BHK-21	3345	32 µg/mL
Cc1cn([C@H]2C[C@H](O)[C@@H](CN)O2)c(=O)[nH]c1=O	EC90	plaque count	VERO	Strain G	>400 µM
CC1=CC(CO)(CO)C[C@H]1n1cnc2c(N)ncnc21	EC50	cytopathic effect	CCL-81	-	>100 µg/mL
COC(=O)/C=C1/[C@@H](O[Si](C)(C)C(C)(C)C)[C@H](n2cc(C)c(=O)n(C)c2=O)O[C@@H]1CO[Si](C)(C)C(C)(C)C	EC50	plaque count	VERO	-	>100 µM
CC1=CC(CO)(CO)C[C@H]1n1ccc(N)nc1=O	EC50	cytopathic effect	CCL-81	-	>100 µg/mL
CC(C)NS(=O)(=O)c1ccccc1C(=O)NNC(=O)c1ccc(Cl)cc1	EC50	cytopathic effect	HEL	G	>100 µM
COc1ccc2[nH]c3c(c2c1)CCN1OCSCC(N)[C@@H]31	EC50	cytopathic effect	PRK	G	0.02 µg/mL
[O-][n+]1onc2ncnc(N3CC[N+]4(CC3)CC[N+]3(CCN(c5ncnc6no[n+]([O-])c56)CC3)CC4)c21	EC50	plaque count	GMK	US	20.4 µM
O=C(NCc1ccc(Cl)cc1)c1c[nH]c2ccc(C#CCO)cc2c1=O	EC50	plaque count	-	MS	14 µM
Cn1cc(C(=O)NCc2ccc(Cl)cc2)c(=O)c2cc(CN3CCOCC3)ccc21	EC50	plaque count	HFF	L6089158 ACV resistant	2.8 µM
CCCCc1cn([C@H]2C[C@H](O)[C@@H](CO)O2)c(=O)[nH]c1=O	EC50	cytopathic effect	BHK-21	3345	>100 µg/mL
CCC(Sc1ncnc2c1cnn2CCCCO)C(N)=O	EC50	cytopathic effect	E6SM	G	>400 µg/mL
CC(C)(C)[Si](C)(C)OC[C@H]1O[C@@H](n2ccc(=O)[nH]c2=O)[C@H](O[Si](C)(C)C(C)(C)C)C1(O)C(Cl)C(N)=O	EC50	plaque count	VERO	-	>3.8 µM
OC[C@H]1CC(n2cnc3c(NC4CC4)ncnc32)C[C@@H]1CO	EC50	-	E6SM	G	>100 µg/mL
CC(=O)OCC(COC(C)=O)OCn1cnc2c(=O)[nH]c(N)nc21	EC50	plaque count	HFF	-	15.8 µg/mL
CC(=O)Oc1ccc([C@@H]2CC(=O)c3c(cc(OC(C)=O)c(-c4c(OC(C)=O)cc5c(c4OC(C)=O)C(=O)C[C@@H](c4ccc(OC(C)=O)cc4)O5)c3OC(C)=O)O2)cc1	EC50	cytopathic effect	HFF	-	>4 µg/mL
[N-]=[N+]=N[C@@H]1[C@@H](OP(=O)(O)OC[C@H]2O[C@@H](n3cnc4c(N)ncnc43)[C@H](OP(=O)(O)OCCOCn3cnc4c(=O)[nH]c(N)nc43)[C@H]2N=[N+]=[N-])[C@H](n2cnc3c(N)ncnc32)O[C@@H]1CO	EC50	cytopathic effect	PRK	G	0.7 µg/mL
Cc1nc(N(C)C(=O)Cc2ccc(-c3ccccc3F)cc2)sc1S(N)(=O)=O	EC50	-	VERO	G	0.01 µM
Nc1nc(NCC2CC2CO)c(N=O)c(=O)[nH]1	EC50	cytopathic effect	-	-	>100 µg/mL
Cc1ccc(/C=N/NC(=O)c2ccccc2S(=O)(=O)NC(C)C)cc1	EC50	cytopathic effect	HEL	G	>100 µM
C=C(C)C(O)Cc1c(O)c(C(C)=O)c(O)c(C(=O)CC(C)C)c1O	EC50	cytopathic effect	VERO	-	3 µM
Nc1nc2c(ncn2COCCO)c(=O)[nH]1	EC50	plaque count	-	-	0.6–1.3 µg/mL
NC(=O)CSc1ncnc2c1cnn2CCCCO	EC50	cytopathic effect	E6SM	G	>400 µg/mL
Cc1cccc(C)c1N(CC(=O)Nc1ccc(-c2ncon2)cc1)C(=O)C1CCS(=O)(=O)CC1	EC50	plaque count	-	OOM	0.022 µg/mL
O=C(NCc1ccc(Cl)cc1)c1cn2c3c(cc(CN4CCOCC4)cc3c1=O)OC(c1cccnc1)C2	EC50	plaque count	HFF	13076 (WILD TYPE)	5.6 µM
Nc1nc2c(ncn2CC(CO)OCP(=O)(O)O)c(=O)[nH]1	EC50	plaque count	WI-38	186 (TK-)	0.3 µM
CC(C)(C)[Si](C)(C)OC[C@H]1O[C@@H](n2ccc(=O)[nH]c2=O)[C@H](O[Si](C)(C)C(C)(C)C)/C1=C/CO	EC50	plaque count	VERO	-	>5 µM
CO[C@H]1C[C@H](n2cc(/C=C/Br)c(=O)[nH]c2=O)O[C@@H]1COP1(=O)OCc2cccc(C)c2O1	EC50	plaque count	VERO	G (TK+)	>128 µg/mL
[N-]=[N+]=N[C@H]1[C@@H](F)[C@H](n2cnc3c(N)ncnc32)O[C@@H]1CO	EC50	cytopathic effect	PRK	G	>200 µg/mL
Cc1cn([C@@H]2OC[C@H](CO)[C@H]2O)c(=O)[nH]c1=O	EC50	cytopathic effect	E6SM	G	>400 µg/mL
CC(C)(C)[Si](C)(C)OC[C@H]1O[C@@H](n2ccc(=O)[nH]c2=O)[C@H](O[Si](C)(C)C(C)(C)C)C1(O)[C@H](N=[N+]=[N-])C(N)=O	EC50	plaque count	VERO	-	>3.6 µM
COc1ccc2nc3n[nH]c(C)c3c(SCc3ccco3)c2c1	EC50	plaque count	VERO	-	1.5 µg/mL
O=c1[nH]c(=O)n(C2C[C@H](CO)[C@@H](CO)C2)cc1I	EC50	-	E6SM	G	>100 µg/mL
Nc1ncnc2c1ncn2[C@H]1OC[C@@H](CO)C1O	EC50	cytopathic effect	E6SM	G	>80 µg/mL
O=c1[nH]c(=O)n([C@H]2C[C@H](O)[C@@H](COP3(=O)OCc4c(ccc5ccccc45)O3)O2)cc1/C=C/Br	EC50	plaque count	VERO	G (TK+)	>128 µg/mL
CCCC(=O)OCC(COC(=O)CCC)OCn1cnc2c(=O)[nH]c(N)nc21	EC50	plaque count	HFF	-	100 µg/mL
CCCn1cc(C(N)=O)c(=O)c2ccc(-c3ccncc3)cc21	EC50	plaque count	VERO	Curtis	>6.25 µg/mL
C=Cc1cn([C@H]2C[C@H](O)[C@@H](CO)O2)c(=O)[nH]c1=O	EC50	cytopathic effect	BHK-21	3345	0.5 µg/mL
Cc1nc(Cc2ccccc2)c2[nH]c(=S)[nH]c(=O)n12	EC50	cytopathic effect	PRK	G	150 µg/mL
C=C/C=C/c1cn([C@H]2C[C@H](O)[C@@H](CO)O2)c(=O)[nH]c1=O	EC50	cytopathic effect	BHK-21	3345	16 µg/mL
CC(Sc1ncnc2c1cnn2COCC(O)CO)C(N)=O	EC50	cytopathic effect	E6SM	G	>400 µg/mL
O=c1[nH]c(=O)n([C@H]2C[C@H](O)[C@@H](COP(=O)([O-])OP(=O)([O-])OC[C@@H]3OC(O)[C@H](O)[C@H](O)[C@H]3O)O2)cc1I	EC50	cytopathic effect	PRK	G	2 µg/mL
Cc1cn(C2CC(O[N+](=O)[O-])C(CO)O2)c(=O)[nH]c1=O	EC50	cytopathic effect	E6SM	G	>400 µg/mL
C=C1[C@H](CO)OC[C@@H]1n1ccc(=O)[nH]c1=O	EC50	-	-	-	>100 µg/mL
C=Cc1cn([C@H]2C[C@H](O)[C@@H](CO)O2)c(=O)[nH]c1=O	EC50	plaque count	VERO	3345	2 µM
NC(=O)c1cn(-c2ccc(F)cc2)c2cc(-c3cc[n+]([O-])cc3)ccc2c1=O	EC50	plaque count	VERO	Curtis	>12.5 µg/mL
Cc1cn([C@H]2OC[C@@H](CO)C2F)c(=O)[nH]c1=O	EC50	cytopathic effect	E6SM	G	>80 µg/mL
CC(=O)NS(=O)(=O)c1cc(C)c(NC(=O)CN2C(=O)c3ccccc3S2(=O)=O)cc1C	EC50	cytopathic effect	HEL	G	>100 µM
Nc1nc2c(ncn2COCCO)c(=O)[nH]1	EC50	plaque count	Vero cells	-	2.9 µg/mL
O=c1[nH]c(=O)n([C@H]2C[C@H](O)[C@@H](COP(=O)(O)O)O2)cc1I	EC50	cytopathic effect	PRK	G	2 µg/mL
Nc1nc2c(ncn2C[C@H]2CS[C@H](P(=O)(O)O)O2)c(=O)[nH]1	EC50	plaque count	VERO	186	>100 µg/mL
C=CCc1nc(C)n2c(=O)[nH]c(NC(C)=O)nc12	EC50	cytopathic effect	PRK	G	>200 µg/mL
C#Cc1cn([C@H]2C[C@H](O)[C@@H](COP(=O)(O)CC(=O)O)O2)c(=O)[nH]c1=O	EC50	plaque count	VERO	3345	>200 µM
Nc1nc2c(ncn2CC=C(CO)CO)c(=O)[nH]1	EC50	cytopathic effect	-	-	>100 µg/mL
O=C(O)CP(=O)(O)O	EC50	plaque count	VERO	3345	40 µM
CC(C)Nc1ncnc2c1ncn2C1C[C@H](CO)[C@@H](CO)C1	EC50	-	E6SM	G	>100 µg/mL
Cc1cn([C@@H]2O[C@H](CO)[C@@H](O)[C@@H]2F)c(=O)[nH]c1=O	EC50	plaque count	VERO	HG-52	0.09 µM
O=c1[nH]c(=O)n([C@H]2C[C@H](O)[C@@H](CO)O2)cc1/C=C/Br	EC50	plaque count	CCRF-HSV-B	MS	62 µg/mL
Cc1nc(C(C)C)c2[nH]c(=S)[nH]c(=O)n12	EC50	cytopathic effect	PRK	G	>200 µg/mL
Nc1nc2c(ncn2CC2CSC(P(=O)(O)O)O2)c(=O)[nH]1	EC50	plaque count	VERO	186	99 µg/mL
Cn1cc(C(=O)NCc2ccc(Cl)cc2)c(=O)c2cc(CN3CCOCC3)ccc21	EC50	plaque count	VERO	MS	2.5 µM
CCCn1cc2c(O)cnc-2c2ccc(-c3ccncc3)cc21	EC50	plaque count	VERO	-	>100 µg/mL

8 of the rows above, restated:

structure	endpoint	read by	cell line	strain or isolate	result
CON1CCc2c([nH]c3ccccc23)[C@@H]1[C@@H](N)CSC	EC50	cytopathic effect	PRK	G	70 µg/mL
Cc1cn([C@@H]2OC[C@H](CO)[C@H]2O)c(=O)[nH]c1=O	EC50	cytopathic effect	E6SM	G	>400 µg/mL
OC[C@H]1CC(n2cnc3c(NC4CC4)ncnc32)C[C@@H]1CO	EC50	-	E6SM	G	>100 µg/mL
Nc1nc(NCC2CC2CO)c(N=O)c(=O)[nH]1	EC50	cytopathic effect	-	-	>100 µg/mL
Cc1cn([C@@H]2O[C@H](CO[Si](C)(C)C(C)(C)C)C3(O[C@H]3C(=O)NO)[C@H]2O[Si](C)(C)C(C)(C)C)c(=O)[nH]c1=O	EC50	plaque count	VERO	-	>3 µM
COC(=O)/C=C1/[C@@H](O[Si](C)(C)C(C)(C)C)[C@H](n2cc(C)c(=O)n(C)c2=O)O[C@@H]1CO[Si](C)(C)C(C)(C)C	EC50	plaque count	VERO	-	>100 µM
CC(=O)NS(=O)(=O)c1cc(C)c(NC(=O)CN2C(=O)c3ccccc3S2(=O)=O)cc1C	EC50	cytopathic effect	HEL	G	>100 µM
Cn1cc(C(=O)NCc2ccc(Cl)cc2)c(=O)c2cc(CN3CCOCC3)ccc21	EC50	plaque count	VERO	MS	2.5 µM